Measured values from several laboratories, pooled; numbers as filed in NIAID ChemDB.

Shared fields: growth or infection tests; agent: HIV-1; read by: syncytia; endpoint: EC50

An empty or dashed field is not shown. Lines come from different laboratories, so protocols vary. ECn is the concentration giving n% inhibition of infection, replication or growth.

structure	changes	cells	strain or isolate	result
O=c1[nH]cnc2c1ncn2[C@H]1CC[C@@H](CO)O1		CEM	IIIB	2.2 µM
CCOCn1c(Cc2ccccc2)c(CC)c(=O)[nH]c1=O	RT-Y181C	CEM	IIIB PYR(RT-Y181C)	0.11 µg/mL
Cc1ccnc2c1NC(=O)c1cccnc1N2C1CC1		CEM	IIIB-TIBO(0.1)	0.06 µg/mL
Nc1ncnc2c1ncn2[C@H]1C=C[C@@H](CO)O1		C8166	IIIB	>50 µM
C=C(C)OC(=O)N1c2cc(Cl)ccc2NC(=S)C1(C)C	RT-V106A	CEM	NEV(RT-V106A)	0.16 µM
CCNc1cccnc1N1CCN(C(=O)c2cc3cc(OC)ccc3[nH]2)CC1	RT-Y181C	CEM	IIIB E-EBU(RT-Y181C)	9 µg/mL
CCN1C(=O)N(Cc2cccc(Cl)c2)S(=O)(=O)c2cscc21		MT-4	RF	3.6 µM
Nc1ncnc2c1ncn2CCOCP(=O)(O)O	RT-V179N	CEM	IIIB-Pyridinone(0.1)(RT-V179N	13 µM
CC(C)=CCN1Cc2cc(Cl)cc3[nH]c(=S)n(c23)C[C@@H]1C	RT-L100I E138K	CEM	IIIB TIBO R82913 STR-B02 (RT L100I E138K)	5 µM
Cc1ccnc2c1NC(=O)c1cccnc1N2C1CC1	RT-Y181C	CEM		25.5 µM
Cc1ccnc2c1NC(=O)c1cccnc1N2C1CC1	RT-E138K	CEM	IIIB TSAO-T(RT-E138K)	0.02 µM
Cc1c(Sc2ccccc2)n(COCCO)c(=O)[nH]c1=O	RT-Y181C	CEM	IIIB E-EBU(RT-Y181C)	>100 µg/mL
N#CCN1C(=O)N(Cc2cccc(F)c2)S(=O)(=O)c2cscc21	RT-K103N	CEM		28.5 µM
Cc1cn([C@@H]2O[C@H](CO[Si](C)(C)C(C)(C)C)[C@@]3(OS(=O)(=O)C=C3N)[C@H]2O[Si](C)(C)C(C)(C)C)c(=O)[nH]c1=O	RT-Y181C	CEM	IIIB nevirapine-resistant (RT Y181C)	2.5 µM
Cc1cn([C@@H]2O[C@H](CO[Si](C)(C)C(C)(C)C)C3(OS(=O)(=O)C=C3N)[C@H]2O[Si](C)(C)C(C)(C)C)c(=O)n(C)c1=O	RT-E138K	CEM	TSAO(RT-E138K)	>75 µM
CCn1c(=O)c(C)cn([C@@H]2O[C@H](CO[Si](C)(C)C(C)(C)C)C3(OS(=O)(=O)C=C3N)[C@H]2O[Si](C)(C)C(C)(C)C)c1=O		CEM	IIIB	0.06 µg/mL
CC(C)=CCN1Cc2cccc3[nH]c(=S)n(c23)C[C@@H]1C	RT-L100I	CEM	IIIB TIBO R82150-resistant (RT L100I)	≥5 µM
CCc1cc(NCc2nc3c(Cl)ccc(Cl)c3o2)c(=O)[nH]c1C	RT-Y181C	CEM	IIIB-TSAO-m3T(10)(RT-Y181C)	0.07 µg/mL
CC(C)Nc1cccnc1N1CCN(C(=O)c2cc3ccccc3[nH]2)CC1	RT-Y188H	CEM	HEPT (RT Y188H)	0.88 µM
Nc1ccn([C@H]2CC[C@@H](CO)O2)c(=O)n1	RT-Y181C	CEM	IIIB-Nevirapine(0.1)(RT-Y181C)	0.006 µM
N#CCN1C(=O)N(Cc2ccccc2)S(=O)(=O)c2cscc21	RT-K103N	CEM		>300 µM
CCc1cc(NCc2nc3c(Cl)ccc(Cl)c3o2)c(=O)[nH]c1C	RT-Y188H	CEM	HEPT (RT Y188H)	4.3 µM
CC(C)=CCN1Cc2cc(Cl)cc3[nH]c(=S)n(c23)C[C@@H]1C	RT-Y181C	CEM	IIIB E-EBU(RT-Y181C)	≥5 µg/mL
Nc1nc2c(ncn2[C@H]2CC[C@@H](CO)O2)c(=O)[nH]1	RT-L100I	CEM	IIIB TIBO R82150-resistant (RT L100I)	1 µM

2 of the rows above, restated:

structure	changes	cells	strain or isolate	result
CCc1cc(NCc2nc3c(Cl)ccc(Cl)c3o2)c(=O)[nH]c1C	RT-Y188H	CEM	HEPT (RT Y188H)	4.3 µM
Nc1nc2c(ncn2[C@H]2CC[C@@H](CO)O2)c(=O)[nH]1	RT-L100I	CEM	IIIB TIBO R82150-resistant (RT L100I)	1 µM